Experimental data: PubChem BioAssay AID504761 (Drosophila RNAi Screening Center, 2011)

Assay: 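Fly genes whose silencing reduces dengue virus type 2 infection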 (primary screen)
Cells: D.Mel-2 cells from Drosophila
Knock-down reagent: long dsRNA against Drosophila genes
Treatment: infection with dengue virus type 2; dose and infection time not stated
Measurement: 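Per well on two replicate plates, imaging gave the percent of cells positive for viral envelope protein, ranked by infection, and a nuclear count of cells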
Reading the numbers: infection score: higher = more virus-infected cells; cell count: higher = more cells in the well
Active means: 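Low infection ranks in the two replicates (chance level up to 0.065) followed by a retest with a 1.5-fold or larger significant decrease, p below 0.05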
Calls: active = confirmed: knock-down lowers infection; inactive = not picked or not confirmed
The screen tested about 22,000 reagents; shown is an unselected part of those that have a named target and a result. Of all reagents, 116 (0.52%) are marked active. 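Calls depend on retest data that are not deposited; infection was ranked per plate without normalising between plates; the unit of the infection score is not given.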 Raw values vary from plate to plate and are shown uncorrected. The numbers tell different reagents against one gene apart. The record does not give: the amount of reagent, the time to read-out.

no.	gene	reagent no.	infection score, replicate 1	infection score, replicate 2	cell count, replicate 1	cell count, replicate 2	Call
1	CG34462	1	1.88	4.38	6172	6047	inactive
2	CG34462	2	6.48	2.86	6662	6255	inactive
3	Pfdn4	1	4.57	6.34	6237	6056	inactive
4	Pfdn4	2	5.74	12	6537	5389	inactive
5	chas	1	23.1	8.51	5793	6812	inactive
6	chas	2	11.7	5.07	6058	6593	inactive
7	chas	3	8.87		2750	227	inactive
8	CG13321	1	18.6	10	5615	6723	inactive
9	CG13321	2	9.64	30.5	7248	5737	inactive
10	Bhmt	1	5.65	4.42	5880	6382	inactive
11	Bhmt	2	3.11	5.96	6304	6074	inactive
12	Sgt1	1	2.78	4.41	6194	6759	inactive
13	Sgt1	2	15.9	9.9	5788	6415	inactive
14	CG34133	1	1.51	4.88	6158	6368	inactive
15	CG34133	2	3.04	8.31	6708	6514	inactive
16	CG34133	3	2.28	5.8	6584	6116	inactive
17	CG34133	4	3.36	13.8	655	2936	inactive
18	CG10237	1	8.31	12.1	6546	6075	inactive
19	CG15803	1	1.54	1.55	6741	6959	inactive
20	CG1628	1	29.8	16.3	6618	6811	inactive
21	Strn-Mlck	1		0.61	367	495	inactive
22	Strn-Mlck	2	11.8	9.91	6687	7074	inactive

6 of these entries in another layout.
gene,reagent no.,"infection score, replicate 1","infection score, replicate 2","cell count, replicate 1","cell count, replicate 2",Call
chas,2,11.7,5.07,6058,6593,inactive
chas,3,8.87,,2750,227,inactive
CG13321,1,18.6,10,5615,6723,inactive
CG13321,2,9.64,30.5,7248,5737,inactive
Bhmt,1,5.65,4.42,5880,6382,inactive
Bhmt,2,3.11,5.96,6304,6074,inactive

Additional reagents:
no.	gene	reagent no.	infection score, replicate 1	infection score, replicate 2	cell count, replicate 1	cell count, replicate 2	Call
23	cocoon	1	1.17	1.05	6214	6408	inactive
24	cocoon	2	7.31	10.5	5516	5390	inactive
25	CG8547	1	10.6	18.8	5989	6210	inactive
26	CG8547	2	16.1	15.6	4842	2842	inactive
27	grass	1	3.27	3.83	6331	6839	inactive
28	Spt20	1	0.72	8.57	5528	6008	inactive
29	Spt20	2	0.4	5.19	6578	6631	inactive
30	pnt	1	5.3	12.9	5061	6021	inactive
31	pnt	2	0.27	19.6	376	3739	inactive
32	CG15203	1	1.96	6.27	6675	6615	inactive
33	CG12814	1	24.7	20.2	5982	5849	inactive
34	CG12814	2	2.52	10.5	6505	5767	inactive
35	CG30172	1	2.87	15	5671	5508	inactive
36	CG30172	2	3.27	3.12	6674	5992	inactive
37	eIF3g2	1	2.43	1.28	6710	6501	inactive
38	eIF3g2	2	10.5	13.3	2538	2210	inactive
39	CG32564	1	10.9	1.79	6188	6921	inactive
40	CG32564	2	3.59	6.13	7110	6412	inactive
